# Only a part of the results on these compounds is given; other tests are left out.
# Chains of the proteins cited; added tags and fusions are not shown. Residues count along the entry.
# UniProt P29990, 1346-1475 limits assumed: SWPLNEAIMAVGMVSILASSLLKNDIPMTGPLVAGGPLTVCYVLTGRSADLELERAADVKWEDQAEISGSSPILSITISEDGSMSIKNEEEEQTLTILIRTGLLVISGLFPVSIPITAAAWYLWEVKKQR
# UniProt P29990, 1476-2093 limits assumed: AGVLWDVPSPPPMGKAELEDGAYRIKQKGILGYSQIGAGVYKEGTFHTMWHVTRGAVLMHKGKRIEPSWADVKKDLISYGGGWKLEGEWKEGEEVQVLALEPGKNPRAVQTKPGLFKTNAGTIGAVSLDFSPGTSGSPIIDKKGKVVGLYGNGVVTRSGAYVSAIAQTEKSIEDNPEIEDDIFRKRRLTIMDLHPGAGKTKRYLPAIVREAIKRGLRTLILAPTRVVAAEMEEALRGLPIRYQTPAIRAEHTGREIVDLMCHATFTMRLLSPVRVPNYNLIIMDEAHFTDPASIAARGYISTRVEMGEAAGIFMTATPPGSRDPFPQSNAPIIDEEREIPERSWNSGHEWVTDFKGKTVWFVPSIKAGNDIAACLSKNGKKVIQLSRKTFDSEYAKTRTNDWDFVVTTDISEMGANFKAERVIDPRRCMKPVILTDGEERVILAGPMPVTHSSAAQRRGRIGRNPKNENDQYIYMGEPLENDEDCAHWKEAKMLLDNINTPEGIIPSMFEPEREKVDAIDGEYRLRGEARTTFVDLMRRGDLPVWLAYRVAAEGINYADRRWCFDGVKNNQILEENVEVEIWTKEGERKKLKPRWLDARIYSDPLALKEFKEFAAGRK
# Target: Genome polyprotein (dengue virus type 2, UniProt P29990)
# Assay: Functional biochemical assay to identify treatments for viral infectious disease that targets Dengue virus type 2 NS2B-NS3 protease. Utilizing a direct enzyme activity measurement method, reading the fluorescence intensity is used to characterize the relative potency of inhibitors as IC50. Synthetic construct has been made based on Dengue virus type 2 (strain Thailand/16681/1984) by Centre for Med
smiles,measurement,value
c1ccc(NC2CCN(Cc3c[nH]c4ccccc34)CC2)cc1,IC50,> 99.5 µM
